Measurements published in publication doi:10.1101/2025.02.16.638509 (2025).

Target: biotinylated Tom70 ([…]), AVI-tagged (human, biotin (AVI-tag, BirA co-expression))
Assay: SPR

B1: refolded WT Orf9b (apo-homodimer) (natural protein)
chain: not shown
For B1, the koff was 0.0039 s⁻¹.
